Two sequences from publication PMC11112850 can be followed below.

Amino acid sequences for entries named in this document (tags omitted). A change or cut given only in a name is not applied to a line headed by its entry.
UniProt P76141: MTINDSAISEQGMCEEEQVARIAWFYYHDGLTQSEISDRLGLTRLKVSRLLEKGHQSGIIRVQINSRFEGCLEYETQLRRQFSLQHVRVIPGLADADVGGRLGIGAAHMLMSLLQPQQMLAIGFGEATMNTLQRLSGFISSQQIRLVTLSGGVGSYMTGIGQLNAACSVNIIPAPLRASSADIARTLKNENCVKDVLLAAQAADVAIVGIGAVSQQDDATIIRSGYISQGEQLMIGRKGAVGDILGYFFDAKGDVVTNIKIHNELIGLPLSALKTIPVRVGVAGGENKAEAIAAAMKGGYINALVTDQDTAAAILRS

This data set has as its target LsrR (UniProt P76141). As to the kind of experiment: EMSA. To be noted: 0, 0.5, 1, 2 uM LsrR, 100 ng probe, dose-dependent shift, 5x binding buffer (4 uL): 100 mM NaCl, 50 mM Tris-HCl, 3 mM Mg acetate, 0.1 mM EDTA, 0.1 mM DTT, pH 7.5, 30 min at 25 C, recombinant protein, protein details: 6xHis, probe letters rebuilt from the primers and the genome. In general terms: A gel shift assay detects complexes by their altered migration in electrophoresis.

The exact form of at least one protein or probe is not confirmed.

As for “ATTTCCCCCGTTCAGTTTTGCAGGTGAGTTTTGAACAAATGTATTTCTGCTTTTAATTTGTTCATAACCTTAGGTGGACATTGCACATATTTCCGACGAATAGATCACAATTTATGCTATTTTGATTTTCACGGTTGCGTTTGTTCATGCTCGTAGAGTCAAACTGTGGTTGCCATCACAGATATAAATGAGCAAGAACTGAACAATTGCATTAAAGATTTAAATATGTTCAAAGTGAAGAATGAATT (double strand) [p-lsrR (lsrR promoter)]”, under “positive control”, the binding result is on record as “binds”. Take “TTGATTTAACTTATTGATAATAAAGTTAAAAAAACAAATAAATACAAGACAATTGGGGCCAAACTGTCCATATCATAAATAAGTTACGTATTTTTTCTCAAGCATAAAAATATTAAAAAACGACAAAAAGCATCTAACTGTTTGATATGTAAATTATTTCTATTGTAAATTAATTTCACATCACCTCCGCTATATGTAAAGCTAACGTTTCTGTGGCTCGACGCATCTTCCTCATTCTTCTCTCCAAAAACCACCTCATGCAATATAAACATCTATAAATAAAGATAACAATAGAATATTAAGCCAACAAATAAACTGAAAAAGTTTGTCCGCGATGCTTTCCTCTATGAGTCAAAATGGCCCCAAATGTTTCATCTTTTGGGGGAAAACTGTGCAGTGTTGGCAGTCAAACTCGTTTACAAAACAAAGTGTACAGAACGACTGCCCATGTCGATTTAGAAATAGTTTTTTGAAAGGAAAGCAGC (double strand) [p-fim (fimAICDFGH promoter)]”: the binding result was “binds”.
